Reference: ChEMBL document CHEMBL1157932, “Prenylated pterocarpans as bacterial neuraminidase inhibitors” (Bioorg Med Chem, 2010)
The source made the active and inactive calls. No cut-off for these calls is given here.

Tests used:
[1] = molecular target: T1, Sialidase (Clostridium perfringens) (UniProt P10481); assay: Inhibition of Clostridium perfringens neuraminidase at 0.1 times IC50 by spectrofluorimetry
T1 sequence (whole entry): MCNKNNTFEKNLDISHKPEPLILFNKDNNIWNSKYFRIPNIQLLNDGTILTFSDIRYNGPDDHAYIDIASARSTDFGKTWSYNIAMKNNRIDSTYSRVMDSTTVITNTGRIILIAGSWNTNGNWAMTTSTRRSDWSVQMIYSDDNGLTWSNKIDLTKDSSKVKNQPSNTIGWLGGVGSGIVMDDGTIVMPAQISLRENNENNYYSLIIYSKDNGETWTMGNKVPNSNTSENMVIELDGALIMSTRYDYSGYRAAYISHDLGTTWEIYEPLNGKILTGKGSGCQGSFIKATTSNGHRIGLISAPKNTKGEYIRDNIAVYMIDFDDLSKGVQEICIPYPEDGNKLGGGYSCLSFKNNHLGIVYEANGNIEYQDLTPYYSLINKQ
Outline: (§1)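 Reversibility by jump dilution: enzyme pre-incubated 15 min with compound at 100-fold assay enzyme level (0.125 U/mL), then diluted 1/100 into acetate buffer with substrate. Progress curves of fluorescence over 30 min compared with enzyme pre-incubated and diluted without compound.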

[2] = molecular target: T1, Sialidase (Clostridium perfringens); assay: Noncompetitive inhibition of Clostridium perfringens neuraminidase by Dixon plot analysis
Outline: (§2)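 Dixon plots of 1/v against [I] at each substrate concentration, rates from unquenched fluorometric 4-MU-NANA hydrolysis (ex 360/em 440 nm); Ki read from the x-axis value where lines intersect.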

[3] = molecular target: T1, Sialidase (Clostridium perfringens); assay: Reversible inhibition of Clostridium perfringens neuraminidase at 10 times IC50 pre-incubated for 15 mins by spectrofluorimetry; outline: as §1
[4] = molecular target: T1, Sialidase (Clostridium perfringens); assay: Noncompetitive inhibition of Clostridium perfringens neuraminidase by Lineweaver-Burke plot analysis
[5] = molecular target: T1, Sialidase (Clostridium perfringens); assay: Inhibition of Clostridium perfringens neuraminidase assessed as inhibition of 4-MU-NANA hydrolysis after 10 mins by spectrofluorimetry
Outline: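 Enzyme at 0.05 U/mL in 0.04 M sodium acetate pH 5.0 with compound (DMSO stock diluted in buffer) and 4-MU-NANA (1 mM stock); 10 min at 37 °C. Stopped with 0.1 M glycine–NaOH pH 10.4; 4-methylumbelliferone read at ex 360/em 440 nm. IC50 from regression, mean ± SD of three replicates.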

[6] = molecular target: T1, Sialidase (Clostridium perfringens); assay: Inhibition of Clostridium perfringens neuraminidase at 10 times IC50 by spectrofluorimetry; outline: as §1
[7] = molecular target: T1, Sialidase (Clostridium perfringens); assay: Reversible inhibition of Clostridium perfringens neuraminidase at 0.1 times IC50 pre-incubated for 15 mins by spectrofluorimetry; outline: as §1
[8] = molecular target: T1, Sialidase (Clostridium perfringens); assay: Competitive inhibition of Clostridium perfringens neuraminidase by Lineweaver-Burke plot analysis
[9] = molecular target: T1, Sialidase (Clostridium perfringens); assay: Competitive inhibition of Clostridium perfringens neuraminidase by Dixon plot analysis; outline: as §2

Row | SMILES | inhibition [1] | inhibition [2] | inhibition [3] | inhibition [4] | Activity [5] | inhibition [6] | inhibition [7] | inhibition [8] | inhibition [9]
1 | COc1ccc2c3c(oc2c1CC=C(C)C)-c1ccc(O)cc1OC3 [ERYVARIN D] | 9% | Active | Active | Active | Dose-dependent effect | 91% | Active | – | –
2 | CC1(C)C=Cc2c(ccc3c2O[C@H]2c4ccc(O)cc4OC[C@@H]32)O1 [PHASEOLIN] | 9% | – | Active | – | Dose-dependent effect | 91% | Active | Active | Active
